Results of unrelated studies side by side (data: NIAID ChemDB).

All rows: growth or infection tests; organism: Varicella zoster virus; read-out: EC50

ECn is the concentration giving n% inhibition of infection, replication or growth. An empty or dashed field is not shown. Two numbers with a dash give a range or band. Neighbouring rows are from separate reports.

structure | strain or isolate | read by | cells | result
CCCCCC(=O)O[C@H]1C[C@H](n2cc(/C=C/Br)c(=O)[nH]c2=O)O[C@@H]1COP1(=O)OCc2cccc(C)c2O1 | OKA | plaque count | HELF | 0.067 µg/mL
O=c1[nH]c(=O)n([C@H]2C[C@H](O)[C@@H](CO)O2)cc1I |  | plaque count | HEL | 0.99 µM
Nc1nc(N)c2ncn(CCOCP(=O)(O)O)c2n1 | PMEA-resistant | plaque count | HEL | 12.8 µg/mL
CC(=O)O[C@H]1C[C@H](n2cc(/C=C/Br)c(=O)[nH]c2=O)O[C@@H]1COP1(=O)OCc2cccc(C)c2O1 | OKA | plaque count | HELF | 0.04 µg/mL
Nc1nc2c(ncn2[C@@H]2C=C[C@H](CO)CC2)c(=O)[nH]1 | OKA (TK+) | plaque count | HEL | 0.6 µg/mL
Nc1nc2c(ncn2CCC(CO)CO)c(=O)[nH]1 | BVDU-resistant | plaque count | HEL | 5.8 µg/mL
CC1OP(=O)(OC[C@H]2O[C@@H](n3cc(/C=C/Br)c(=O)[nH]c3=O)C[C@@H]2O)Oc2cccc(Cl)c21 | OKA | plaque count | HELF | 0.02 µg/mL
Cc1cn([C@@H]2O[C@H](CO)[C@@H](O)[C@@H]2O)c(=O)[nH]c1=O |  | plaque count | HEL | 1.43 µM
CCc1cn([C@H]2C[C@H](O)[C@@H](CO)O2)c(=O)[nH]c1=O | OKA YS | plaque count | HEL | 43 µM
Nc1ncnc2c1ncn2CCOCP(=O)(O)O | 4 strains | cytopathic effect | HEL | 10 µg/mL
C#Cc1cn([C@H]2C[C@H](O)[C@@H](CO)O2)c(=O)[nH]c1=O |  | plaque count | HEL | 0.4 µM
O=C(O)CP(=O)(O)O | ACV-resistant | plaque count | HEL | 6.4 µg/mL
Nc1nc(N)c2ncn(CC(CO)OCP(=O)(O)O)c2n1 | 4 strains | cytopathic effect | HEL | 1 µg/mL
Cc1cn([C@@H]2O[C@H](CO)C[C@@H]2O)c(=O)[nH]c1=O |  | plaque count | HEL | 32 µM
Nc1nc(N)c2ncn([C@@H]3S[C@H](CO)[C@H](O)[C@@H]3F)c2n1 |  |  |  | 0.101 µg/mL
CC#Cc1cn([C@@H]2O[C@H](CO)[C@@H](O)[C@@H]2O)c(=O)[nH]c1=O |  | plaque count | HEL | 1.63 µM
C[C@H](COc1cc(N)nc(N)n1)OCP(=O)(O)O | YS/R (TK-) | cytopathic effect | HEL | 5.7 µg/mL
O=c1ccn([C@H]2C[C@H](O)[C@@H](CO)O2)c(=O)[nH]1 | OKA YS | plaque count | HEL | >250 µM
Nc1nc(OCCOCP(=O)(O)O)cc(OCCOCP(=O)(O)O)n1 | OKA | cytopathic effect | HEL | 50 µg/mL
O=c1[nH]c(=O)n([C@@H]2O[C@H](CO)[C@@H](O)[C@@H]2O)cc1/C=C/Cl |  | plaque count | HEL | 0.0056 µM
Nc1ncnc2c1ncn2C[C@H]1COP(=O)(O)CO1 | 4 strains | cytopathic effect | HEL | 0.03 µg/mL
Cc1cc(C)c2c(c1)COP(=O)(OC[C@H]1O[C@@H](n3cc(/C=C/Br)c(=O)[nH]c3=O)C[C@@H]1O)O2 | OKA | plaque count | HELF | 0.019 µg/mL
O=c1[nH]c(=O)n([C@H]2C[C@H](O)[C@@H](CO)S2)cc1C1CCC1 | OKA YS | plaque count | HEL | 0.38 µM
Nc1nc2c(ncn2CCOCP(=O)(O)O)c(=O)[nH]1 | 4 strains | cytopathic effect | HEL | 0.05 µg/mL
C[C@H](Cn1cnc2c(NC3CC3)ncnc21)OCP(=O)(O)O | 07/1 (TK-) |  |  | 0.08 µg/mL
Cc1cccc2c1OP(=O)(OC[C@H]1O[C@@H](n3cc(/C=C/Br)c(=O)[nH]c3=O)C[C@@H]1OC(=O)C(C)C)OC2 | OKA | plaque count | HELF | 0.017 µg/mL
O=c1[nH]c(=O)n([C@H]2C[C@H](O)[C@@H](CO)S2)cc1C1CCCC1 | OKA YS | plaque count | HEL | 0.48 µM
Nc1ncnc2c1ncn2C[C@@H](CO)OCP(=O)(O)O | PMEDAP-resistant | plaque count | HEL | 0.014 µg/mL
Cc1cccc2c1OP(=O)(OC[C@H]1O[C@@H](n3cc(/C=C/Br)c(=O)[nH]c3=O)C[C@@H]1OC(=O)[C@@H](N)C(C)C)OC2 | OKA | plaque count | HELF | 0.026 µg/mL
Nc1ncnc2c1ncn2C[C@@H](CO)OCP(=O)(O)O | 4 strains | cytopathic effect | HEL | 0.02 µg/mL
COc1ccc2c(c1)COP(=O)(OC[C@H]1O[C@@H](n3cc(/C=C/Br)c(=O)[nH]c3=O)C[C@@H]1O)O2 | OKA | plaque count | HELF | 0.01 µg/mL
O=c1[nH]c(=O)n([C@@H]2O[C@H](CO)[C@@H](O)[C@@H]2O)cc1I |  | plaque count | HEL | 70 µM
Cc1cccc2c1OP(=O)(OC[C@H]1O[C@@H](n3cc(/C=C/Br)c(=O)[nH]c3=O)C[C@@H]1OC(=O)[C@@H](C)N)OC2 | OKA | plaque count | HELF | 0.016 µg/mL
CCCc1cn([C@H]2C[C@H](O)[C@@H](CO)S2)c(=O)[nH]c1=O | OKA YS | plaque count | HEL | 1.8 µM
CC(=O)CCC(=O)O[C@H]1C[C@H](n2cc(/C=C/Br)c(=O)[nH]c2=O)O[C@@H]1COP1(=O)OCc2cccc(C)c2O1 | OKA | plaque count | HELF | 0.039 µg/mL
Nc1nc2c(ncn2[C@H]2C=C[C@@H](CO)CC2)c(=O)[nH]1 |  | plaque count |  | 1–10 µM